Anti-infective test results gathered from many reports (values: NIAID ChemDB through PubChem).

Common to all: toxicity to cultured cells; read-out: CC50

Blank or dashed fields: not listed here. CCn: concentration that lowers growth or viability of the cells by n%. a–b is a range or a potency band. Conditions beyond the fields shown may differ between rows.

structure,method,cell line,value
C[C@]1(Cn2cc(COc3cccc(F)c3)nn2)Cn2cc([N+](=O)[O-])nc2O1,MTT,J774,>40 µg/mL
CC(=O)N[C@H]1C(O[C@@H]2[C@@H](O)[C@H](O)[C@@H](O)C[C@H]2OC(=O)[C@H]2C[C@H](O)[C@]3(O)[C@@H](O)[C@]4(C[C@H](OC(=O)c5ccc(O)cc5)[C@H](C)CO4)O[C@]3(O)C2)O[C@H](CO)[C@@H](O)[C@@H]1O,MTT,HepG2 2.2.15,51.4 µM
CC1(C(=O)O)CC[C@]2(C)CC[C@]3(C)C(=CC(=O)C4[C@@]5(C)CCC(=O)C(C)(C)C5CC[C@]43C)C2C1,,HepG2.2.15,467 µM
O=C1[C@H]2Cc3c([nH]c4ccccc34)[C@@H](c3ccc4c(c3)OCO4)N2C(=O)CN1[C@@H]1CCN(Cc2ccccn2)C1,resazurin,MRC-5 SV2 cells,52 µM
CC(C)(C)c1ccc(NC(=O)NOCCCCCC(=O)NO)cc1,sulforhodamine,NFF cells,4.9 µM
Nc1nc2c(ncn2[C@@H]2O[C@H](CO)[C@@H](O)[C@@H]2O)c(=O)[nH]1,,CCRF-HSB-2,2.8 µg/mL
CSc1nsc(-c2ccc(OS(=O)(=O)c3ccc(C)cc3)cc2)c1C#N,,L929,>25 µM
Cc1cc2c(Sc3ccc(F)cc3)cc(=O)n(C)c2cc1C,,Huh-Luc-Neo,>100 µM
CC1(C)[C@@H](O)CC[C@]2(C)[C@H]3C(=O)C=C4[C@@H]5C[C@@](C)(C(=O)OCc6ccc(-n7cccn7)cc6)CC[C@]5(C)CC[C@@]4(C)[C@]3(C)CC[C@@H]12,,HepG2.2.15,1990 µM
Nc1nc(N)c2cc3c(ccc4ccccc43)nc2n1,MTT,SK-5,6.3 µM
CC(=O)C[C@@H]1C[C@H]2[C@H]([C@@H]3c4[nH]c5ccccc5c4CCN13)[C@H](O)C13CC/C=C\CCCCN1CC21CC/C=C\CCCNC13,,A-594,>5 µg/mL
CC1=CC2c3c(cc4oc(-c5cc(O)cc(O)c5)cc4c3C)O[C@@]3(c4ccc(O)cc4O)Oc4cc(O)ccc4[C@H](C1)C23,MTT,HepG2.2.5 cells,6.79 µM
O=C1[C@H]2Cc3c([nH]c4ccccc34)[C@@H](c3ccc4c(c3)OCO4)N2C(=O)CN1[C@@H]1CCN(CC2CCCC2)C1,resazurin,MRC-5 SV2,5.6 µM
COc1ccc(-c2snc(SC)c2C#N)cc1,,HELA-OHIO,12 µM
Brc1ccc(-c2cc3c(-c4ccnc(NC5CCC5)n4)ccc(NC4CCC4)n3n2)cc1,,VERO 76,>40 µM
O=C(CCCCCONC(=O)Nc1ccc(-c2ccccc2)cc1)NO,sulforhodamine,NFF cells,7.9 µM
COc1cc2c(NC3CCN(C)CC3)nc(N3CCCN(C)CC3)nc2cc1OCc1ccccc1,fluorescence,JEG-3,2.2 µM
O=C(NCCc1ccccn1)NCCc1ccc2c(n1)NCCC2,,PBMC,50 µM
CN(C)c1ccc(CN2CC[C@@H](N3CC(=O)N4[C@H](c5ccc6c(c5)OCO6)c5[nH]c6ccccc6c5C[C@@H]4C3=O)C2)cc1,resazurin,MRC-5 SV2,2 µM
Cc1cc(-c2cn(C[C@@]3(C)Cn4cc([N+](=O)[O-])nc4O3)nn2)ccc1F,MTT,J774,>40 µg/mL
CN(CCOc1ccc(-c2ccc(Cl)cc2)cc1)CCN1CCN(c2ccncc2)C1=O,,RD,>25 µM
COC(=O)C1=C(CN2CC(F)(F)[C@@H]3[C@H]2CON3C[C@@H](F)C(C)(C)C(=O)O)NC(c2nccs2)=N[C@H]1c1ccc(F)c(F)c1Cl,WST / absorbance,HepG2.2.15,50 µM
CN(C)C(=O)CN1CC[C@@H](N2CC(=O)N3[C@H](c4ccc5c(c4)OCO5)c4[nH]c5ccccc5c4C[C@@H]3C2=O)C1,resazurin,MRC-5 SV2,>64 µM
O=C(NCCc1ccc2c(n1)NCCC2)Nc1ccc(-c2ccccc2)cc1,,PBMC,6.2 µM
CC1(C)[C@@H](O)CC[C@]2(C)[C@H]3CC=C4[C@@H]5C[C@@](C)(C(=O)OCc6ccc(C(F)(F)F)cc6)CC[C@]5(C)CC[C@@]4(C)[C@]3(C)CC[C@@H]12,,HepG2.2.15,>1500 µM
Cc1cc2nc3c4ccccc4n(CCN(C)C)c3nc2cc1C,,HL,10–30 µM
CO[C@H](c1ccc(O)cc1)C1NC(=O)[C@H](CCC(N)=O)N(C)C(=O)[C@H](CC(C)C)NC(=O)[C@@H](CCCN=C(N)N)CC(=O)C([C@@H](C)O)CC(=O)[C@@H](NC(=O)C(NC(=O)[C@H](O)[C@H](O)[C@H](CCCN=C(N)N)NC(=O)C(C)NC(=O)[C@H](C)[C@H](O)[C@H](C)CC(C)C)[C@@H](C)[C@@H](C)C(N)=O)[C@@H](C)OC(=O)[C@H](C)N(C)C1=O,MTT,Lymphomonocytes,0.01 µg/mL
CC(CCOc1ccc(-c2noc(C(F)(F)F)n2)cc1)CCN1CCN(c2ccncc2)C1=O,,RD,>25 µM
O=C(NCCc1ccc2c(n1)NCCC2)Nc1cccc(F)c1,,PBMC,50 µM
C[C@@H]1CO[C@@]2(C[C@@H]1OC(=O)c1ccc(O)cc1)O[C@]1(O)C[C@@H](C(=O)O[C@@H]3C[C@H](O)[C@@H](O)[C@H](O)[C@H]3OC3O[C@H](CO)[C@@H](O)[C@H](O)[C@H]3OC3O[C@H](CO)[C@@H](O)[C@H](O)[C@H]3O)C[C@H](O)[C@]1(O)[C@H]2O,MTT,HepG2 2.2.15,279.7 µM
O=C(NCCc1ccc2c(n1)NCCC2)NC1Cc2ccccc2C1,,PBMC,5.1 µM
Cn1c(=O)cc(Sc2ccc(N)cc2)c2ccc(Cl)cc21,,Huh-Luc-Neo,10–100 µM
CO/C=C(/C(=O)OC)[C@H](C)C(=O)/C=C/c1ccccc1,,HL-60,10 µg/mL
Cc1ccc(Sc2cc(=O)n(C)c3cc(C)c(C)cc23)cc1,,Huh-Luc-Neo,>100 µM
O=C(NCc1ccc(Cl)cc1)c1cn2c(CCN3CCOCC3)cc3cc(CN4CCOCC4)cc(c1=O)c32,MTS,BCBL-1,>17.9 µM
Nc1nc(N)c2cc3c(nc2n1)CCc1ccccc1-3,MTT,PC-3,8.4 µM
COC(=O)C1=C(CN2CC(F)(F)[C@@H]3[C@H]2CON3C[C@@H](F)C(C)(C)C(=O)O)NC(c2nccs2)=N[C@H]1c1cccc(F)c1C,WST / absorbance,HepG2.2.15,>50 µM
C[C@]1(Cn2cc(-c3ccc(Oc4ccccc4)cc3)nn2)Cn2cc([N+](=O)[O-])nc2O1,MTT,J774,>40 µg/mL
COC(=O)C1=C2Nc3ccccc3[C@@]23CCN2C[C@]4(C[C@@H]5C[C@]67CCO[C@H]6CCC6NC[C@@]8(c9cccc(OC)c9N(C4)[C@@H]58)[C@@H]67)[C@@H]4OCCC4(C1)[C@H]23,absorbance,HL-60,>56.94 µM
CSc1nsc(-c2ccccc2)c1C#N,,L929,20 µM
CC(=O)N[C@H]1C(O[C@@H]2[C@@H](O)[C@H](O)[C@@H](O)C[C@H]2OC(=O)[C@H]2C[C@H](O)[C@@]3(O)[C@@H](C2)O[C@@]2(C[C@H](OC(=O)c4ccccc4)[C@H](C)CO2)[C@@H]3O)O[C@H](CO)[C@@H](O)[C@@H]1O,MTT,HepG2 2.2.15,24.8 µM
CCOC(=O)COc1ccc(-c2cc3c(-c4ccnc(NC5CCCC5)n4)ccc(NC4CCCC4)n3n2)cc1,,VERO 76,>100 µM
CO/C=C(/C(=O)OC)[C@H](C)[C@@H](O)/C=C/c1ccccc1,,BHK,50 µg/mL
Cc1ccc2c(c1)c(Sc1ccc(Cl)cc1)cc(=O)n2C,,Huh-Luc-Neo,10–100 µM
C[C@]1(Cn2cc(COc3ccccc3F)nn2)Cn2cc([N+](=O)[O-])nc2O1,MTT,J774,>40 µg/mL
Nc1nc2c(sc(=O)n2C/C=C\CO)c(=O)[nH]1,,HFF (static),>100 µM
O=C1[C@H]2Cc3c([nH]c4ccccc34)[C@@H](c3ccc4c(c3)OCO4)N2C(=O)CN1[C@@H]1CCN(CCc2ccccc2)C1,resazurin,MRC-5 SV2,8.1 µM
COc1cc(/C=C/C(=O)O[C@H]2CC[C@]3(C)[C@H]4CC=C5[C@@H]6C[C@@](C)(C(=O)OCc7ccc(Br)cc7F)CC[C@]6(C)CC[C@@]5(C)[C@]4(C)CC[C@H]3C2(C)C)cc(OC)c1OC,,HepG2.2.15,935 µM
Cn1cc(C(=O)NCc2ccc(Cl)cc2)c(=O)c2c1SC(CN1CCOCC1)C2,MTS,BCBL-1,>23.1 µM
C[C@]1(Cn2cc(-c3ccc(C(F)(F)F)cc3)nn2)Cn2cc([N+](=O)[O-])nc2O1,MTT,J774,>40 µg/mL
CN[C@@H]1[C@H](O[C@@H]2OC[C@@H](O)[C@H](O)[C@H]2O)[C@@H](O)[C@H](O[C@H]2c3cc(C)c(C(=O)N[C@H](C)C(=O)O)c(O)c3-c3c(cc4c(c3O)C(=O)c3cc(OC)cc(O)c3C4=O)[C@@H]2O)O[C@@H]1C,,MDCK cells,>100 µg/mL
Cc1ccc(CN(CCOc2ccc(-c3ccc(Cl)cc3)cc2)CCN2CCN(c3ccncc3)C2=O)cc1,,RD,>12.5 µM
c1cc(OCC2CC2)cc(-c2cc3c(-c4ccnc(NC5CCCC5)n4)ccc(NC4CCCC4)n3n2)c1,,VERO 76,>40 µM
Cc1ccccc1OCc1cn(C[C@@]2(C)Cn3cc([N+](=O)[O-])nc3O2)nn1,MTT,J774,>40 µg/mL
O=C1N(CCC2(CCOc3ccc(-c4ccc(Cl)cc4)cc3)CCCCC2)CCN1c1ccncc1,,RD,>25 µM
NC(=O)c1cccc(-c2cc3c(-c4ccnc(NC5CCCC5)n4)ccc(NC4CCCC4)n3n2)c1,,VERO 76,>30 µM
CC(C)c1ccc(OCc2cn(C[C@@]3(C)Cn4cc([N+](=O)[O-])nc4O3)nn2)cc1,MTT,J774,>40 µg/mL
Nc1ccn([C@@H]2O[C@H](CO)[C@@H](CO)[C@@H]2F)c(=O)n1,,PBM,≥100 µM
O=C(NCCc1cccc(-n2ccnc2)n1)NC1CCCCC1,,PBMC,50 µM
CCOC(=O)C1=C(CN2CC(F)(F)[C@@H]3[C@H]2CON3C[C@@H](F)C(C)(C)C(=O)O)NC(c2nccs2)=N[C@H]1c1ccc(F)c(F)c1C,WST / absorbance,HepG2.2.15,50 µM
CCn1c(=O)cc(Sc2ccc(Br)cc2)c2ccccc21,,Huh-Luc-Neo,>100 µM
Nc1nc2c(ncn2[C@@]23CO[C@@H]2[C@H](O)[C@@H](CO)O3)c(=O)[nH]1,resazurin,Zluc,>100 µM
Cc1cc(C)cc(NC(=O)NOCCCCCC(=O)NO)c1,sulforhodamine,NFF cells,7.7 µM
Brc1cccc(-c2cc3c(-c4ccnc(NC5CCCC5)n4)ccc(NC4CCCC4)n3n2)c1,,VERO 76,>100 µM
COc1ccc2c(c1)c(Sc1ccc(C)cc1)cc(=O)n2C,,Huh-Luc-Neo,>100 µM
COC(=O)C1=C(CN2CC(F)(F)[C@@H]3[C@H]2CON3CC[C@@](C)(O)C(=O)O)NC(c2nccs2)=N[C@H]1c1ccc(F)c(F)c1C,WST / absorbance,HepG2.2.15,>100 µM
COc1cc(/C=C/C(=O)O[C@H]2CC[C@]3(C)[C@H]4C(=O)C=C5[C@@H]6C[C@@](C)(C(=O)O)CC[C@]6(C)CC[C@@]5(C)[C@]4(C)CC[C@H]3C2(C)C)cc(OC)c1OC,,HepG2.2.15,>1160 µM
CC(=O)Nc1ccc(Sc2cc(=O)n(C)c3ccccc23)cc1,,Huh-Luc-Neo,>100 µM